In the supplement of paper PMC9931576:
Human monoclonal antibodies against the spike receptor-binding domain (heavy:light variable regions). IC50 against pseudoviruses bearing the spike of naturally observed variants; lower = stronger; >10 µg/ml means not reached at the top dose. No active / inactive call. The stated detection limit is 0.0005 µg/ml; values near or below 0.001 µg/ml lie at the floor of the assay.

Tests used:
Test in all cases: pseudovirus neutralization IC50; higher = weaker neutralization
[1] = molecular target: SARS-CoV-2 Omicron BA.1 spike pseudovirus
Procedure: (§1)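 Single-round VSV luciferase pseudovirus mixed with antibody dilutions for 1 h and put on Huh-7 cells for about a day; IC50 from the dose curve.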

[2] = molecular target: SARS-CoV-2 Omicron BA.2 spike pseudovirus
Procedure: as §1

[3] = molecular target: SARS-CoV-2 Omicron BA.2.75 spike pseudovirus
Procedure: as §1

[4] = molecular target: SARS-CoV-2 Omicron BA.5 spike pseudovirus
Procedure: as §1

[5] = molecular target: SARS-CoV-2 Omicron BQ.1.1 spike pseudovirus
Procedure: as §1

[6] = molecular target: SARS-CoV-2 Omicron XBB spike pseudovirus
Procedure: as §1

[7] = molecular target: SARS-CoV-2 early D614G spike pseudovirus
Procedure: as §1

Binder | pseudovirus neutralization IC50 [1] | pseudovirus neutralization IC50 [2] | pseudovirus neutralization IC50 [3] | pseudovirus neutralization IC50 [4] | pseudovirus neutralization IC50 [5] | pseudovirus neutralization IC50 [6] | pseudovirus neutralization IC50 [7]
BD56-1458 (protein) chain 1: EVQLVESGGGLVQPGRSLRLSCAASGLTFDDYAMHWVRQAPGKGLEWVSGVSWNSGTIGYADSVKGRFIIIRDNAKNSLYLQMNSLRAEDTALYYCGKDIGYGDYVSGGVHYWGRGTPVTVSS chain 2: QSALTQPASVSGSPGQSITISCTGTSSDVGGYNSVSWYQQHPGKAPKLMLYDVTKRPSGVSNRFSGSKSGNTASLTISGLQAEDEADYYCSSYTSTSTYVFGTGTRVTVL | 0.0882 µg/mL | 0.108 µg/mL | 0.0956 µg/mL | > 10 µg/mL | > 10 µg/mL | > 10 µg/mL | 0.0682 µg/mL
BD56-1464 (protein) chain 1: QLQLVESGGGVVQPGRSLRLSCAASGFTFSRFGMNWVRQAPGKGLEWVAVIWYDGTKRYYGDSVKGRFTITRDTSKTTLHLQMNSLRVEDTAVYYCARSLTYFDVLTGSERFDAFDVWGQGTMVTVSS chain 2: DIQMTQSPSTLSASVGDRVTITCRASQSISRWLAWYQQKPGKAPKLLIYEASTLESGVPSRFSGSGSGTEFTLTISSLQPDDFATYYCQQYNTSSYTFGQGTKLEIK | > 10 µg/mL | > 10 µg/mL | > 10 µg/mL | > 10 µg/mL | > 10 µg/mL | > 10 µg/mL | 0.144 µg/mL
BD56-1473 (protein) chain 1: EVQLVESGGGLVQPGRSLRLSCAASGFTFEDYAMHWVRHAPGLGLEWVSGIDWNGGVIDYADSVRGRFIISRDNAKNSLYLQMRSLRVEDTALYYCAKDIGKIVDFYGMDVWGQGTTVTVSS chain 2: QSALTQPASVSGSPGQSITISCTGTSSDVGSYNYVSWYQQHPGKAPKLMIYDVRNRPSGVSNRFSGSKSGTTASLTISGLQAEDEADYYCSSYTNSSIVVFGGGTKLTVL | 0.029 µg/mL | 0.033 µg/mL | 0.0247 µg/mL | 0.489 µg/mL | > 10 µg/mL | > 10 µg/mL | 0.00374 µg/mL
BD56-1474 (protein) chain 1: QVQLVQSGAEVKKPGASVKVSCKASGYTFTNYYMHWVRQAPGQGLEWMGIINPSDGSTNYAQKSQGRVTMTRDTSTSTVYLELSSLTSEDTALYYCARSMYSTSSEGYYYYYYMDIWGKGTTVTVSS chain 2: QSALTQPASVSGSPGQSITISCTGTNSDVGVYNYVSWYQQHPGKAPKLMMYDVGKRPSGVSSRFSGSKSVNTASLTISGLQAEDEADYYCSSWTSSSTHVVFGGGTRLTVL | > 10 µg/mL | 3.19 µg/mL | > 10 µg/mL | > 10 µg/mL | > 10 µg/mL | > 10 µg/mL | 0.00272 µg/mL
BD56-1477 (protein) chain 1: QVQLQESGPGLVRPSETLSLTCSVSGGSISHYYWNWIRQSPGKGLEWIGYVFYSGSTNYNPSLRSRVTILVDTSKNQFSLKLRSVTAADTALYYCARDRGHRSGWPDALDIWGQGTMVTVSS chain 2: DIQMTQSPPSLSASVGDRVTITCQASQDITNYLNWYQQRPGKAPKLLIYDASNLETGVPSRFSGRGSGTDFTFTISSLQPEDIATYYCQQYDNIPWTFGQGTKVEIK | 0.262 µg/mL | 0.435 µg/mL | 0.474 µg/mL | > 10 µg/mL | > 10 µg/mL | 1.38 µg/mL | 0.0216 µg/mL
BD56-1482 (protein) chain 1: EVQLVESGGGLVQPGGSLRLSCVASGITVSSNYMTWVRQAPGKGLEWVSVIYPGGSTFYADSLQGRFTVSRHDSKNTLFLQMDSLRPDDTGVYFCARDLVVSGMDVWGQGTTVTVAS chain 2: DIQLTQSPSFLSASVGDRVTITCRASQGISSYLAWYQQKPGKAPKLLIYAASTLQSGVPSRFSGSGSGTEFTLTVSSLQPEDFATYYCQQLDSSPPYTFGQGTKLEIK | 0.0681 µg/mL | 0.0767 µg/mL | > 10 µg/mL | 0.132 µg/mL | > 10 µg/mL | > 10 µg/mL | 0.00817 µg/mL
BD56-1518 (protein) chain 1: QVQLQESGPGLVKPSQTLSLTCTVSGGSINSGGHYWSWIRQHPGKGLEWIGYISYTGSTYYNPSLRSRVAISADTSKNQFSLRLSSVTAADTAVYFCARGVGQHSDPFDYWGQGTLVTVSS chain 2: DIQMTQSPSSVSASVGDRVTITCRASQGIGNWLAWYQQKPEKAPKLLIYVASRLQSGVPSRFSGSGSGTDFTLTISSLQPEDFATYYCQQANSFPLAFGQGTKVEIK | > 10 µg/mL | > 10 µg/mL | > 10 µg/mL | > 10 µg/mL | > 10 µg/mL | > 10 µg/mL | > 10 µg/mL
BD56-1520 (protein) chain 1: EVQVVESGGGLVQPGRSLRLSCTASGFTFDDYAMHWVRQAPGKGLEWVSGITWNSGTIGYADSVKGRFIISRDNAKNSLNLQMNSLRPEDTALYFCAKDMGKDDYDFLTGFRDWGQGTLVTVSS chain 2: QSVLTQPPSASGTPGQRVSISCSGSSSNIGSNTVNWYQQLPGTAPKLLIYRNNQRPSGVPDRFSGSKSGTSASLAISGLQSEDEADYYCAAWDDSLYVFGTGTKVTVL | 0.134 µg/mL | 0.213 µg/mL | 0.111 µg/mL | > 10 µg/mL | > 10 µg/mL | > 10 µg/mL | 0.117 µg/mL
BD56-1521 (protein) chain 1: QVQLVQSGAEVKKPGASVRVSCRASGYRFTTYGFSWVRQAPGQGLEWMGWISAYNGNKQYAQRLQGRVTMTTDTSTNTAYMELRSLRFDDTAVYYCARDFGEISGSENFDFWGQGTLVSVSS chain 2: EIVLTQSPATLSLSPGERANLSCRASQSVSIYLAWFQQKPGQAPRLLIYHASNRATGIPARFSGSGSGTDFTLTISSLEPEDFAVYYCQLRSNWPSFGQGTRLEIK | 0.029 µg/mL | 0.242 µg/mL | 0.204 µg/mL | > 10 µg/mL | > 10 µg/mL | > 10 µg/mL | 0.304 µg/mL
BD56-1530 (protein) chain 1: QVQLVESGGGVVQPGRSLRLSCAASGFTFINYSMHWVRQTPGRGLEWVAVISYEGRNKYYADSVEGRFTISRDNSKNTLYLQMNSLRIEDTAIYYCARADDSGSYYYVRFSPDYWGQGTLVSVSS chain 2: DVVMTQSPLSLPVTLGQPASISCRSSQSLVYADGNTYLNWFHQRPGQSPRRLIYKVSNRDSGVPDRFSGSGSGTDFTLQISRVEAEDVGVYYCMQGTHWPPSFGGGTKVEIK | 2.79 µg/mL | 3.17 µg/mL | 1.14 µg/mL | 1.33 µg/mL | 0.908 µg/mL | 0.963 µg/mL | > 10 µg/mL
BD56-1539 (protein) chain 1: QVQLVQSGAEVKKPGASVKVSCKASGYTFSSQYLHWVRQAPGQGLEWMGIINPSGGSTSYAQKFQGRVTMTSDTSTSTVYMELSGLRSEDTAVYYCARDWAYIPATMAFDTWGQGTLVTVSS chain 2: DIQMTQSPSTLSASVGDRVTITCRASQSISSRLAWYQQKPGKAPKLLIYKASSLETGVPSRFSGSGSGTEFTLTISSLQPDDFATYYCQHYNSYSYTFGQGTKLEIK | 3.61 µg/mL | 5.01 µg/mL | 4.58 µg/mL | 4.67 µg/mL | 4.97 µg/mL | 5.24 µg/mL | 5.53 µg/mL
BD56-1540 (protein) chain 1: QVQLVESGGGVVQPGRSLRLSCVASGFTFSNYGMHWVRQAPGKGLEWVAVILYDGSNKYYADSVKGRFTISRDNSKNTLYLQMNSLRAEDTAVYYCAKVLGPYCSAGNCYSGYFDYWGQGTLVTVSS chain 2: DIQMTQSPSTLSASVGDRVTITCRASQSISSWLAWYQQRPGKAPKLLIYETSSLESGVPSRFSGSGSGTEFTLTISSLQPDDFATYYCQQYNTYSNTFGQGTKLEIK | > 10 µg/mL | > 10 µg/mL | > 10 µg/mL | > 10 µg/mL | > 10 µg/mL | > 10 µg/mL | > 10 µg/mL
